Results: patent US10100076B2, “Modified nucleosides for the treatment of viral infections and abnormal cellular proliferation” (priority 2000, dated 2018)

What was measured:
Type in all cases: cell-based
Influenza B [1] = conditions: Initial Test, Neutral Red
Influenza A (H1N1) = conditions: Initial Test, Neutral Red
[2] = test system: Parainfluenza Type 3 Virus; conditions: Initial Test, Neutral Red
Influenza B [3] = test system: Influenza B

SMILES	SI (Selectivity Index), Influenza B (Influenza B [1])	SI (Selectivity Index), Influenza A (H1N1) (Influenza A (H1N1))	SI (Selectivity Index), Parainfluenza Type 3 Virus [2]	SI (Selectivity Index), Influenza B (Influenza B [3])
O=c1nc(NO)ccn1[C@@H]1O[C@H](CO)[C@@H](O)[C@H]1O [β-D-BS]	133	116	1	
OC[C@H]1O[C@@H](n2cnc3c(Cl)ncnc32)[C@H](O)[C@@H]1O [β-D-DJ]	>4.5		>1	>10
Nc1ccn([C@@H]2O[C@H](CO)C[C@H]2O)c(=O)n1 [β-D-AJ]	>3.3	>3.3		2

Read-outs that look alike come from different tables or passages of the source. The index is printed as in the source, without its formula.
